The values that follow are results of earlier work, collected in patent publication US20220096411A1, “COMBINING METABOLIC STIMULATION AND AMINO ACIDS TO SENSITIZE TOLERANT BACTERIA TO ANTIBIOTICS” (priority 2019, published 2022).

Some entries repeat one wording, which the source may state once for all of them.

This data set deals with E. coli peptidoglycan. The note with it: previous work (14); cited from earlier work.
`CSCC[C@@H](N)C(=O)O` [D-methionine]: the “incorporation of exogenous D-amino acid into peptidoglycan” value (from here on “incorporation”) is recorded as “incorporated into E. coli peptidoglycan”.

As to `CCCC[C@@H](N)C(=O)O` [D-norleucine], the “incorporation” value is listed as “incorporated into E. coli peptidoglycan”.

As for `O=C(O)[C@H]1CCCN1` [D-proline], the “incorporation” value is “is not”.

`CC(C)[C@@H](N)C(=O)O` [D-valine]: the “incorporation” value is recorded as “incorporated into E. coli peptidoglycan”.
